Pooled drug test results. Numbers come from NIAID ChemDB, via PubChem.

Common to all: tests on isolated targets; agent: HIV-1; target: Reverse transcriptase

a–b is a range or a potency band.

| SMILES | method | strain | mutations | measure | result |
|---|---|---|---|---|---|
| O=c1ccn(C2C=CC(OP(=O)(O)Cc3ccccc3)C2)c(=O)n1Cc1ccccc1 | RT activity |  |  | Ki | >100 µM |
| S=C(NCCc1ccccc1Cl)Nc1ccc(Br)cn1 | radiometric |  |  | IC50 | 0.7 µM |
| CCN1C(=O)c2cccc(C)c2Oc2ncccc21 | nucleotide incorporation / radiometric | LAV |  | IC50 | <10 µg/mL |
| CCCCCCCCCCCCCCCCOCC(COC(=O)CCC(=O)OC1CC(COP(=O)(O)OC2CC(COP(=O)(O)OC3CC(CO)OC3n3cnc4c(N)ncnc43)OC2n2cnc3c(N)ncnc32)OC1n1cnc2c(N)ncnc21)OCCCCCCCCCCCCCCCC |  |  |  | IC50 | <300 µM |
| Cc1occc1C(=S)Nc1ccc(Cl)c(SCC(=O)OC(C)(C)C)c1 | nucleotide incorporation |  |  | IC50 | 1.658 µM |
| Nc1ncnc2c1ncn2[C@@H]1C[C@H](COP(=O)(O)OP(=O)(O)OP(=O)(O)O)C2CC21 | nucleotide incorporation / radiometric |  |  | IC50 | 36.39 µg/mL |
| Cc1cc(C)cc(S(=O)(=O)c2c(C(=O)NCCO)[nH]c3ccc(Cl)cc23)c1 | nucleotide incorporation / radiometric |  | RT-V179D | IC50 | >40 µM |
| Cc1cc(C)c(Nc2ccnc(Nc3ccc(C#N)cc3)n2)c(C)c1 |  | IIIB |  | IC50 | 0.024 µM |
| CCN1C(=O)c2ccc(C)cc2Oc2ncccc21 | nucleotide incorporation / radiometric | LAV |  | IC50 | >10 µg/mL |
| Cc1nnc2c3ccccc3c(N3CCc4c(F)cccc4C3)nn12 | RT activity / fluorescence | IIIB |  | IC50 | 2.16 µM |
| O=c1ccn(C2C=CC(OP(=O)(Cc3ccccc3)OCc3ccccc3)C2)c(=O)n1Cc1ccccc1 | RT activity |  |  | Ki | >100 µM |
| CC(=O)Nc1ccc(C(=O)CSc2nc3c(ncn3[C@H]3C[C@H](O)[C@@H](COP(=O)(O)OP(=O)(O)OP(=O)(O)O)O3)c3nccn23)cc1 | radiometric |  |  | Ki | 75 µM |
| CC[C@H]1C(=O)Nc2ccc(F)cc2N1C(=O)OC(C)C | radiometric |  | RT-W229F | IC50 | 0.08 µM |
| Cc1c(C)c2c(c(C)c1OC(=O)OC1CC(COP(=O)(O)OC3CC(COP(=O)(O)OC4CC(CO)OC4n4cnc5c(N)ncnc54)OC3n3cnc4c(N)ncnc43)OC1n1cnc3c(N)ncnc31)CCC(C)(CCCC(C)CCCC(C)CCCC(C)C)O2 |  |  |  | IC50 | ~300 µM |
| [N-]=[N+]=Nc1ccc(C(=O)CSc2nc3c(ncn3[C@H]3C[C@H](O)[C@@H](COP(=O)(O)OP(=O)(O)OP(=O)(O)O)O3)c3nccn23)cc1 | radiometric |  |  | Ki | 15 µM |
| O=c1ccn(C2C=CC(OP(=O)(O)Cc3ccccc3)C2)c(=O)[nH]1 | RT activity |  |  | Ki | >100 µM |
| C/C=C/CN1C(=O)c2ccccc2Oc2ncccc21 | nucleotide incorporation / radiometric | LAV |  | IC50 | >10 µg/mL |
| C=C(C)OC(=O)N1c2cc(Cl)ccc2NC(=S)C1(C)C | radiometric | MN |  | IC50 | 0.14 µM |
| Cc1ccc(Cn2cccc2/C=C/C(=O)CC(=O)C(=O)O)c(C)c1 | RT activity / nucleotide incorporation |  |  | IC50 | 25 µM |
| O=C(O)CCC(=O)NC[C@@H]1CC[C@H](n2cc(-c3cccs3)c(=O)[nH]c2=O)O1 | nucleotide incorporation / radiometric |  |  | IC50 | >200 µg/mL |
| CCCCCCCCCCCCCCCC(=O)OCC(COC(=O)CCC(=O)OC1CC(COP(=O)(O)OC2CC(COP(=O)(O)OC3CC(CO)OC3n3cnc4c(N)ncnc43)OC2n2cnc3c(N)ncnc32)OC1n1cnc2c(N)ncnc21)OC(=O)CCCCCCCCCCCCCCC |  |  |  | IC50 | <300 µM |
| O=C(c1c(O)cc(O)cc1O)c1c(-c2ccc(O)cc2)oc2cc(O)c3c(c12)O[C@H](c1ccc(O)cc1)[C@@H](O)C3 |  | IIIB |  | IC50 | >1000 µg/mL |
| Nc1nc2c(ncn2[C@@H]2C[C@H](COP(=O)(O)OP(=O)(O)OP(=O)(O)O)[C@H]2CO)c(=O)[nH]1 |  |  |  | Ki | 0.3 µM |
| COc1c(C(=O)/C=C(/C)Nc2ccc(F)cc2)c(O)c(S(=O)(=O)Oc2ccc(F)cc2)c2occc12 | RT activity / radiometric |  |  | IC50 | 0.0000065 µM |
| CC(C)(C)c1ccc(-n2nnnc2SCC(=O)Nc2ccccc2Cl)c(Br)c1 | fluorescence |  | RT-K103N Y181C | IC50 | 0.05–0.1 µM |
| Nc1ccn([C@@H]2O[C@H](CO)C[C@@H]2F)c(=O)n1 |  |  |  | Ki | 0.071 µM |
| O=C(/C=C/c1cccn1Cc1ccccc1Cl)CC(=O)C(=O)O | RT activity / nucleotide incorporation |  |  | IC50 | 40 µM |
| Nc1ccn([C@H]2CC[C@@H](COP(=O)(O)OP(=O)(O)OP(=O)(O)O)O2)c(=O)n1 |  |  |  | Ki | 0.08 µM |
| CCOCn1c(Cc2ccccc2)c(C(C)C)c(=O)[nH]c1=O | radiometric |  | RT-W229Y | IC50 | 1.03 µM |
| N#Cc1ccc(Nc2nc(Oc3c(F)cc(-c4ccc(C#N)cc4)cc3F)c3sccc3n2)cc1 | RT activity / fluorescence | IIIB |  | IC50 | 0.041 µM |
| CCCc1cc(=O)oc2c3c(c4c(c12)OC(C)(C)C=C4)O[C@H](C)C[C@@H]3O | nucleotide incorporation / radiometric |  | RT-Y188H | IC50 | 34.2 µM |
| O=C(Nc1cc(C(=O)Nc2ccc(S(=O)(=O)O)c3cc(S(=O)(=O)O)cc(S(=O)(=O)O)c23)ccc1F)Nc1cc(C(=O)Nc2ccc(S(=O)(=O)O)c3cc(S(=O)(=O)O)cc(S(=O)(=O)O)c23)ccc1F | nucleotide incorporation | IIIB |  | IC50 | 12 µg/mL |
| C=CCN1C(=O)c2ccccc2Oc2nc(Cl)ccc21 | nucleotide incorporation / radiometric | LAV |  | IC50 | <10 µg/mL |
| CO.COc1ccccc1CCNC(=S)[N-]c1ccccn1.COc1ccccc1CCNC(=S)[N-]c1ccccn1.[O]=[V+2] | radiometric |  |  | IC50 | 0.87 µM |
| CC(C)=CCOc1cc(NC(=S)c2ccsc2C)ccc1Cl | nucleotide incorporation |  |  | IC50 | 0.054 µM |
| CN1C(=O)c2ccccc2Oc2ncccc21 | nucleotide incorporation / radiometric | LAV |  | IC50 | >10 µg/mL |
| [N-]=[N+]=Nc1c(F)c(F)c(C(=O)CSc2nc3c(ncn3[C@H]3C[C@H](O)[C@@H](COP(=O)(O)OP(=O)(O)OP(=O)(O)O)O3)c3nccn23)c(F)c1F | radiometric |  |  | Ki | 7.4 µM |
| Cc1ccc(C(=O)Nc2ccc(S(=O)(=O)O)c3cc(S(=O)(=O)O)cc(S(=O)(=O)O)c23)cc1NC(=O)Nc1cc(C(=O)Nc2ccc(S(=O)(=O)O)c3cc(S(=O)(=O)O)cc(S(=O)(=O)O)c23)ccc1C | nucleotide incorporation | IIIB |  | IC50 | 45 µg/mL |
| CC(C)=CCOc1cc(NC(=S)c2ccoc2C)ccc1Cl | nucleotide incorporation |  | RT-W229F | IC50 | 0.035 µM |
| CCOC(=O)C(=O)CC(=O)/C=C/c1cccn1Cc1ccc(C)cc1C | RT activity / nucleotide incorporation |  |  | IC50 | 12.1 µM |
| N#Cc1ccc(Nc2nc(Oc3ccc(-c4ccc(C#N)cc4)c(F)c3F)c3sccc3n2)cc1 | RT activity / fluorescence | IIIB |  | IC50 | 0.039 µM |
| COc1c(-c2cc(C)n(-c3ccccc3)n2)c(O)c(S(=O)(=O)OC2CCCCC2)c2occc12 | RT activity / radiometric |  |  | IC50 | 0.0000047 µM |
| O=C(CNc1ccc(C(=O)Nc2cc(S(=O)(=O)O)cc3cc(S(=O)(=O)O)cc(S(=O)(=O)O)c23)cc1)CNc1ccc(C(=O)Nc2cc(S(=O)(=O)O)cc3cc(S(=O)(=O)O)cc(S(=O)(=O)O)c23)cc1 | nucleotide incorporation | IIIB |  | IC50 | 42 µg/mL |
| CCCCCCCC/C=C/CCCCCCCCCCCCCC |  |  |  | IC50 | 4.8 µM |
| O=C1c2c(O)cc(O)cc2O[C@]12c1c(cc(O)c3c1O[C@H](c1ccc(O)cc1)CC3)O[C@H]2c1ccc(O)cc1 |  | IIIB |  | IC50 | 42 µg/mL |
| COc1ccc(OC)c(C/C=C(\C)CC/C=C(\C)CC/C=C(\C)CC/C=C(\C)CC/C=C(\C)CCC=C(C)C)c1 | nucleotide incorporation |  |  | IC90 | 38.5 µM |
| O=C(O)/C=C\C(=O)NC[C@@H]1CC[C@H](n2cc(-c3cccs3)c(=O)[nH]c2=O)O1 | nucleotide incorporation / radiometric |  |  | IC50 | 130 µg/mL |
| Cc1nnc2ccc(N3CCc4ccccc4C3)nn12 | RT activity / fluorescence | 98US_MSC5016 |  | IC50 | 16.5 µM |
| COC(=O)CCC(=O)NC[C@@H]1CC[C@H](n2cc(-c3cccs3)c(=O)[nH]c2=O)O1 | nucleotide incorporation / radiometric |  |  | IC50 | 100 µg/mL |
| Cc1cc(-c2ccc(C#N)cc2)cc(Cl)c1Oc1nc(Nc2ccc(C#N)cc2)nc2ccsc12 | RT activity / fluorescence | IIIB |  | IC50 | 0.044 µM |
| CC(C)=CCOc1cc(NC(=S)c2ccoc2C)ccc1Cl |  |  |  | IC50 | 0.01 µM |
| Cc1cc(C)c(-n2nnnc2SCC(=O)Nc2ccc3c(c2)OCO3)c(C)c1 | fluorescence |  | RT-K103N Y181C | IC50 | ≥0.1 µM |
| CCc1ccc(C(=O)Nc2ccc(S(=O)(=O)O)c3cc(S(=O)(=O)O)cc(S(=O)(=O)O)c23)cc1NC(=O)c1cccc(NC(=O)Nc2cccc(C(=O)Nc3cc(C(=O)Nc4ccc(S(=O)(=O)O)c5cc(S(=O)(=O)O)cc(S(=O)(=O)O)c45)ccc3CC)c2)c1 | nucleotide incorporation | IIIB |  | IC50 | 62 µg/mL |
| CC1C(Sc2nnnn2-c2cccc3ccccc23)C1c1ccccc1Cl | fluorescence |  |  | IC50 | 0.05–0.1 µM |
| Cc1cc(=O)c2c(O)c3c(O)cc(O)c4c5c(O)cc(O)c6c(O)c7c(=O)cc(C)c8c1c2c(c34)c(c65)c78 | RT activity |  |  | IC50 | <1 µg/mL |
| CCN(CC)c1ccc(-n2nnnc2SCC(=O)Nc2ccc(S(N)(=O)=O)cc2C)c(Cl)c1 | fluorescence |  | RT-K103N Y181C | IC50 | ≥0.1 µM |
| Nc1ncnc2c1nnn2[C@H]1CO[C@@H](COP(=O)(O)OP(=O)(O)OP(=O)(O)O)C1 |  |  |  | IC50 | 4.3 µM |
| Nc1nc2c(ncn2[C@H]2CC[C@@H](COP(=O)(O)OP(=O)(O)OP(=O)(O)O)O2)c(=O)[nH]1 | radiometric |  | RT-W229Y | IC50 | 0.57 µM |
| CCOC(=O)/C=C/C(=O)NC[C@@H]1CC[C@H](n2cc(-c3cccs3)c(=O)[nH]c2=O)O1 | nucleotide incorporation / radiometric |  |  | IC50 | >200 µg/mL |
| C/C=C/CSc1cc(NC(=S)c2ccoc2C)ccc1Cl | nucleotide incorporation |  |  | IC50 | 0.118 µM |
| C=CCN1C(=O)c2cccc(C)c2Oc2ncccc21 | nucleotide incorporation / radiometric | LAV |  | IC50 | <10 µg/mL |
| COc1c(C(=O)/C=C(/C)Nc2ccc(Cl)cc2)c(O)c(S(=O)(=O)OC2CCCC2)c2occc12 | RT activity / radiometric |  |  | IC50 | 0.0000078 µM |
| Oc1ccc2c(c1)CN(c1nn3c(C4CC4)nnc3c3ccccc13)CC2 | RT activity / fluorescence | 98US_MSC5016 |  | IC90 | 3.65 µM |
| Cc1ccc(C(=O)Nc2ccc(S(=O)(=O)O)c3cc(S(=O)(=O)O)cc(S(=O)(=O)O)c23)cc1NC(=O)c1ccc(NC(=O)Nc2ccc(C(=O)Nc3cc(C(=O)Nc4ccc(S(=O)(=O)O)c5cc(S(=O)(=O)O)cc(S(=O)(=O)O)c45)ccc3C)cc2)cc1 | nucleotide incorporation | IIIB |  | IC50 | 100 µg/mL |
| c1ccc2c(c1)CCN(c1nn3c(C4CC4)nnc3c3ccccc13)C2 | RT activity / fluorescence | IIIB |  | IC50 | 0.22 µM |
| CCCCCCCCCCCCCCCC(=O)OCC(COC(=O)CCC(=O)OCC1CC(OP(=O)(O)OCC2CC(OP(=O)(O)OCC3CC(O)C(n4cnc5c(N)ncnc54)O3)C(n3cnc4c(N)ncnc43)O2)C(n2cnc3c(N)ncnc32)O1)OC(=O)CCCCCCCCCCCCCCC |  |  |  | IC50 | <300 µM |

Again, the opening 8 rows:

SMILES,method,strain,mutations,measure,result
O=c1ccn(C2C=CC(OP(=O)(O)Cc3ccccc3)C2)c(=O)n1Cc1ccccc1,RT activity,,,Ki,>100 µM
S=C(NCCc1ccccc1Cl)Nc1ccc(Br)cn1,radiometric,,,IC50,0.7 µM
CCN1C(=O)c2cccc(C)c2Oc2ncccc21,nucleotide incorporation / radiometric,LAV,,IC50,<10 µg/mL
CCCCCCCCCCCCCCCCOCC(COC(=O)CCC(=O)OC1CC(COP(=O)(O)OC2CC(COP(=O)(O)OC3CC(CO)OC3n3cnc4c(N)ncnc43)OC2n2cnc3c(N)ncnc32)OC1n1cnc2c(N)ncnc21)OCCCCCCCCCCCCCCCC,,,,IC50,<300 µM
Cc1occc1C(=S)Nc1ccc(Cl)c(SCC(=O)OC(C)(C)C)c1,nucleotide incorporation,,,IC50,1.658 µM
Nc1ncnc2c1ncn2[C@@H]1C[C@H](COP(=O)(O)OP(=O)(O)OP(=O)(O)O)C2CC21,nucleotide incorporation / radiometric,,,IC50,36.39 µg/mL
Cc1cc(C)cc(S(=O)(=O)c2c(C(=O)NCCO)[nH]c3ccc(Cl)cc23)c1,nucleotide incorporation / radiometric,,RT-V179D,IC50,>40 µM
Cc1cc(C)c(Nc2ccnc(Nc3ccc(C#N)cc3)n2)c(C)c1,,IIIB,,IC50,0.024 µM

Rows are shuffled and stem from different studies. ICn: concentration for n% inhibition. An empty or dashed field is not shown.